Compound potency records, mixed from different reports. Data source: NIAID ChemDB in PubChem.

Common to all: tests in culture; species: Mycobacterium tuberculosis

Blank or dashed fields: not listed here.

SMILES	mutations	endpoint	dose	method	strain or isolate	setting	result
C[C@H]1CC[C@@H]2N(C1)C[C@@H]1[C@H]([C@@H](O)[C@H](O)[C@@]3(O)[C@@H]4[C@H](O)C[C@@H]5[C@]6(O)OC4(C[C@@H]13)[C@@]5(C)CC[C@@H]6O)[C@]2(C)O		MIC		BACTEC	H37Rv		≥128 µg/mL
Nc1ncc(F)c2c1ncn2[C@@H]1O[C@H](CO)[C@@H](O)[C@H]1O		MIC			H37Ra		10–100 µg/mL
COCCCn1c(C(Cl)(Cl)Cl)nn2c(=O)c3ccccc3nc2c1=O		inhibition	12.5 µg/mL	BACTEC	H37Rv		11%
COc1ccc(C(=O)Nc2ccc(C(=O)N/N=C/c3ccc(Br)cc3)cc2)cc1		MIC			H37Rv		>6.25 µg/mL
CC(C)(C)OC(=O)CC(NC(=O)OC(C)(C)C)C(=O)NC(Cc1ccccc1)C(N)=O		inhibition	12.5 µg/mL	BACTEC	H37Rv		0%
O=C(CCC(=O)Nc1cccc(Cl)c1)Nc1cccc(Cl)c1		MIC					500 µM
C=CCNC(=S)N=Nc1c(O)n(C)c2ccc(OC(F)(F)F)cc12		EC50		broth dilution / resazurin	H37Rv		2.731 µg/mL
CCN(CC)c1ccc2nc3c4ccccc4c(=N)cc-3oc2c1		inhibition	12.5 µg/mL	BACTEC	H37Rv		99%
O=Cc1ccc(NNC(=O)N2CCN(c3nc(N4CCN(c5ccccc5)CC4)c4ccccc4n3)CC2)cc1		MIC		agar / visual reading	H37Rv		50 µg/mL
Cc1cc2c(cc1C)[n+](=O)c(C#N)c(Cl)n2[O-]		inhibition	6.25 µg/mL		H37Rv		99%
Cc1cc2c(ncn2[C@@H]2O[C@H](CO)[C@@H](O)[C@H]2O)c(C)n1		MIC			SRICK1		>100 µg/mL
Cc1cc2c(cc1C)[n+]([O-])c(C#N)c(N)[n+]2[O-]		MIC			H37Rv		1.56 µg/mL
CC(=O)c1ccccc1Sc1nnc(N2CCN(c3nc(N4CCN(c5ccccc5)CC4)c4ccccc4n3)CC2)o1		MIC		agar / visual reading	H37Rv		200 µg/mL
Cn1c(=O)c2c3c(cnc2n(C)c1=O)C(=O)C1=C(C3=O)C2CCC1CC2	pSMT1 luciferase reporter plasmid	EC90		luminescence	H37Rv		6.98 µg/mL
C/C=C1\C(=O)O[C@]23C=C[C@@H]4C(C(=O)OC)=CO[C@H](O[C@@H]12)[C@@H]43		MIC		MTT	MDR4 clinical isolate		2.6 µg/mL
Cc1ccc2c(c1)c(N=NC(=S)Nc1ccc(F)cc1)c(O)n2C		EC50		broth dilution / resazurin	H37Rv		>100 µg/mL
O=C(Nc1ccc(Br)cc1)C(=O)Nc1ccc(Br)cc1		MIC					4.1 µM
NC(=O)c1cnccn1		inhibition	800 µg/mL		TB213	7 d	97.9%
c1cc2c(s1)CCOC21CCN(Cc2ccc3c(c2)OCCO3)CC1	MmpL3: Phe644Cys	fold resistance		fluorescence	H37Rv		8.3
Cn1c(O)c(N=NC(=S)Nc2ccc([N+](=O)[O-])cc2)c2cc(OC(F)(F)F)ccc21		EC90		broth dilution / resazurin	H37Rv		>100 µg/mL
C=C1CC(OC(C)=O)/C=C(\C)CC[C@@H](C(C)(C)O)C[C@@H]1O		MIC		BACTEC	H37Rv		≥12.5 µg/mL
CC(C)Cn1c(=O)c2c3c(cnc2n(CC(C)C)c1=O)C(=O)C1=C(C3=O)C2CCC1CC2	pSMT1 luciferase reporter plasmid	EC90		luminescence	H37Rv		9.31 µg/mL
CCCCCCCCCCCNCCNCCc1ccc(OC)c(OC)c1		MIC					12.5 µM
COc1ccccc1NNC(=O)N1CCN(c2nc(N3CCN(c4ccccc4)CC3)c3ccccc3n2)CC1		MIC		agar / visual reading	H37Rv		25 µg/mL
COC(=O)C12OC[C@]34[C@H]([C@@H](O)[C@@H]1O)[C@@]1(C)C=C(O[C@@H]5O[C@H](CO)[C@@H](O)[C@H](O)[C@H]5O)C(=O)[C@@H](C)[C@@H]1C[C@H]3OC(=O)[C@H](OC(=O)/C=C(\C)C(C)C)[C@@H]24		MIC bound		BACTEC	H37Rv		>12.5 µg/mL
N#Cc1c(Cl)n([O-])c2ccc(-c3ccc([N+](=O)[O-])cc3)cc2[n+]1=O		inhibition	6.25 µg/mL		H37Rv		94%
Cc1ccc2[nH]c(O)c(N=NC(=S)Nc3ccccc3Br)c2c1		EC50		broth dilution / resazurin	H37Rv		2.898 µg/mL
CCOCCOCCN1CNc2nc(N)[nH]c(=O)c2C1		inhibition	12.5 µg/mL	BACTEC	H37Rv		3%
CCOc1cc(/C=C2\CC/C(=C\c3ccc(OCCCN4CCCC(C)C4)c(OCC)c3)C2=O)ccc1OCCCN1CCCC(C)C1		MIC99		visual reading	H37Rv		3.125–6.25 µM
CCCn1c(=O)c2c3c(cnc2n(CCC)c1=O)C(=O)C1=C(C3=O)C2CCC1CC2	pSMT1 luciferase reporter plasmid	EC99		luminescence	H37Rv		7.34 µg/mL
COc1ccc(C(=O)Nc2ccc(C(=O)NN3C(=O)CSC3c3ccc(Br)cc3)cc2)cc1		MIC			H37Rv		>6.25 µg/mL
O=C(Nc1ccc(C2=NCCN2)cc1)c1ccc(C(=O)Nc2ccc(C3=NCCN3)cc2)c(Br)c1		inhibition	6.25 µg/mL	BACTEC	H37Rv		99%
CC1=C2C(=CO[C@H](C)[C@H]2C)C(=O)C(C(=O)O)=C1O		inhibition	100 µg/mL		49		65%
C=CCNC(=S)N=Nc1c(O)[nH]c2ccc(OC(F)(F)F)cc12		EC50		broth dilution / resazurin	H37Rv		0.635 µg/mL
O=C(Nc1ccc([N+](=O)[O-])cc1)C(=O)Nc1ccc([N+](=O)[O-])cc1		MIC					37 µM
N#Cc1c(N)[n+]([O-])c2ccc(Cl)cc2[n+]1[O-]		inhibition	6.25 µg/mL		H37Rv		100%
CC(C)C1CCC(=O)c2c1ncc1c2C(=O)C2=C(C1=O)C1CCC2C1	pSMT1 luciferase reporter plasmid	EC90		luminescence	H37Rv		24.66 µg/mL
N#Cc1c(N2CCN(c3ccc([N+](=O)[O-])cc3)CC2)[n+](=O)c2ccc(-c3ccc([N+](=O)[O-])cc3)cc2n1[O-]		inhibition	6.25 µg/mL		H37Rv		94%
CCn1cc(C(=O)O)c(=O)c2cc(F)c(N3CCN(C)CC3)cc21		MIC90			21 strains		8 µg/mL
COc1ccc(C(=O)Nc2ccc(-c3nnc(Nc4ccc(C)cc4)o3)cc2)cc1		MIC			H37Rv		>6.25 µg/mL
NNC(=O)c1ccncc1	pSMT1 luciferase reporter plasmid	EC90		luminescence	H37Rv		0.04 µg/mL
COc1ccc(NC(=S)NNC(=O)c2ccc(NC(=O)c3ccc(OC)cc3)cc2)cc1		inhibition	6.25 µg/mL		H37Rv		0%
CO[C@H]1/C=C/O[C@@]2(C)Oc3c(C)c(O)c4c(O)c(c5c(c4c3C2=O)NC2(CCN(CC(C)C)CC2)N=5)=NC(=O)/C(C)=C\C=C\[C@H](C)[C@H](O)[C@@H](C)[C@@H](O)[C@@H](C)[C@H](OC(C)=O)[C@@H]1C		MIC			Strain 101 (D516E L533P)		0.25 µg/mL
COc1ccc(C(=O)Nc2ccc(C(=O)N/N=C/c3ccc(Cl)cc3)cc2)cc1		MIC			H37Rv		>6.25 µg/mL
CC1CCCN(CCCCOc2ccc(/C=C3\CC/C(=C\c4ccc(OCCCCN5CCCC(C)C5)cc4)C3=O)cc2)C1		MIC99		visual reading	H37Rv		6.25 µM
CC(O)C1(O)C(O)CC(OC2c3cc4c(c(O)c3[C@@H]3C[C@@]2(C)OC32C=c3cc[nH]c3=N2)C(=O)c2cccc(O)c2C4=O)OC1C		MIC			KM-R		0.8 µg/mL
CCC(C)c1ccc(NC(=O)CCC(=O)Nc2ccc(C(C)CC)cc2)cc1		MIC					500 µM
O=C1C(=Nc2ccc(Cl)nc2)CC(c2ccccc2)N1c1ccc(Cl)nc1		MIC		BACTEC	H37Rv		≥12.8 µg/mL
Nc1nc(F)cc2c1ncn2[C@@H]1O[C@H](CO)[C@@H](O)[C@H]1O		MIC			SRICK1::ADOK		1–10 µg/mL
C[C@H]1Cc2c(C(=O)O)ccc(O)c2C(=O)O1		MIC			H37Ra		>200 µg/mL
CC(=O)n1cc(CCN)c2cc(O)ccc21		MIC bound		resazurin			>6.25 µg/mL
CCN(CC)CCCCOc1ccc(/C=C2\CC/C(=C\c3ccc(OCCCCN(CC)CC)cc3)C2=O)cc1		EC50		visual reading	H37Rv		6.25 µM
CCCCCCn1c(=O)c2c3c(cnc2n(CCCCCC)c1=O)C(=O)C1=C(C3=O)C2CCC1CC2	pSMT1 luciferase reporter plasmid	EC99		luminescence	H37Rv		14.89 µg/mL
N#Cc1c(N2CCN(c3ccc([N+](=O)[O-])cc3)CC2)[n+](=O)c2ccccc2n1[O-]		EC50			H37Rv		<6.25 µg/mL
CN(C)c1nc(=O)c2ccccc2o1		MIC bound		BACTEC	H37Rv		>12.5 µg/mL
C=CCNC(=S)N=Nc1c(O)[nH]c2ccc(C)cc12		EC90		broth dilution / resazurin	H37Rv		>100 µg/mL
NC(=O)c1cnccn1		inhibition	3.12 µg/mL	BACTEC / fluorescence	H37Rv		99%
CC1CCN(CCCCOc2ccc(/C=C3\CC/C(=C\c4ccc(OCCCCN5CCC(C)CC5)cc4)C3=O)cc2)CC1		MIC99		visual reading	H37Rv		3.12–6.25 µM
CC(=O)OCCCN1/C(=C\C=C2/CCC(/C=C/c3sc4cc5ccccc5cc4[n+]3CCCOC(C)=O)=C2N(c2ccccc2)c2ccccc2)Sc2cc3ccccc3cc21.[O-][Cl+3]([O-])([O-])[O-]		MIC bound		BACTEC	H37Rv		>12.5 µg/mL
O=[N+]([O-])c1cccc(Sc2nnc(N3CCN(c4nc(N5CCN(c6ccccc6)CC5)c5ccccc5n4)CC3)o2)c1		inhibition	25 µg/mL	agar / visual reading	H37Rv		93%
C[C@H]1COc2c(N3CCN(C)CC3)c(F)cc3c(=O)c(C(=O)O)cn1c23		MIC50			19 strains		>0.25 µg/mL
COc1cc2c(cc1OC)C(NNC(C)=O)CCCC2		MIC bound		BACTEC	H37Rv		>12.5 µg/mL
COc1cc2c(cc1Cl)n([O-])c(C#N)c(N1CCN(c3ccc([N+](=O)[O-])cc3)CC1)[n+]2=O		MIC			H37Rv		0.39 µg/mL
N#Cc1ccc(NNC(=O)N2CCN(c3nc(N4CCN(c5ccccc5)CC4)c4ccccc4n3)CC2)cc1		inhibition	6.25 µg/mL	BACTEC / fluorescence	H37Rv		0%
Cc1cc2nc(Cl)c(C#N)nc2cc1C		inhibition	6.25 µg/mL		H37Rv		14%
COc1ccc(C(=O)Nc2ccc(C(=O)NN3C(=O)CSC3c3ccc([N+](=O)[O-])o3)cc2)cc1		inhibition	6.25 µg/mL		H37Rv		90%
Nc1ccc2nc3cc(Nc4ccccc4)c(=Nc4ccccc4)cc-3n(-c3ccccc3)c2c1		MIC			TAC-R		0.2 µg/mL
COc1cc(/C=C2\CC/C(=C\c3ccc(OCCCCN4CCCCCC4)c(OC)c3)C2=O)ccc1OCCCCN1CCCCCC1		MIC99		visual reading	H37Rv		12.5 µM
CCCCc1ccc(NC(=O)CCC(=O)Nc2ccc(CCCC)cc2)cc1		MIC					500 µM
CC(CNC[C@@H]1CC[C@H]2C[C@@H]1C2(C)C)NCC12CC3CC(CC(C3)C1)C2		MIC					6.25 µM
CCCCCCC1NC(=O)OC1=O		inhibition	12.5 µg/mL	BACTEC	H37Rv		-9%
COc1ccc(NC(=S)N=Nc2c(O)n(CN3CCOCC3)c3ccc(OC(F)(F)F)cc23)cc1		EC50		broth dilution / resazurin	H37Rv		2.404 µg/mL
CC(=O)OCCn1c2nc(=O)[nH]c(=O)c-2nc2cc(C)c(C)cc21		inhibition	12.5 µg/mL	BACTEC	H37Rv		10%
CC(NCCNCCc1ccccc1Cl)C12CC3CC(CC(C3)C1)C2		MIC					50 µM
CCN(CC)CCCC(C)Nc1ccnc2cc(N(C)C)ccc12		inhibition	12.5 µg/mL	BACTEC	H37Rv		47%
Oc1ccc(CCNCCNCc2ccccc2)cc1		MIC					50 µM
COc1ccc(OC)c(N=Nc2sc(N)nc2-c2ccccc2)c1		inhibition	6.25 µg/mL	BACTEC	H37Rv		6%
CC(=O)NC[C@H]1CN(c2ccc(N3CCN(Cc4ccc([N+](=O)[O-])s4)CC3)c(F)c2)C(=O)O1		MIC90			59 isolates		0.25 µg/mL
COc1ccc(C2SC(N)=Nc3c2c(C)nn3C(=O)c2ccccc2O)cc1		inhibition	6.25 µg/mL	resazurin	H37Rv		26%
O=[N+]([O-])c1ccccc1Sc1nnc(N2CCN(c3nc(N4CCN(c5ccccc5)CC4)c4ccccc4n3)CC2)o1		inhibition	6.25 µg/mL	BACTEC / fluorescence	H37Rv		0%

Repeating the final 9 entries:

| SMILES | mutations | endpoint | dose | method | strain or isolate | setting | result |
|---|---|---|---|---|---|---|---|
| COc1ccc(NC(=S)N=Nc2c(O)n(CN3CCOCC3)c3ccc(OC(F)(F)F)cc23)cc1 |  | EC50 |  | broth dilution / resazurin | H37Rv |  | 2.404 µg/mL |
| CC(=O)OCCn1c2nc(=O)[nH]c(=O)c-2nc2cc(C)c(C)cc21 |  | inhibition | 12.5 µg/mL | BACTEC | H37Rv |  | 10% |
| CC(NCCNCCc1ccccc1Cl)C12CC3CC(CC(C3)C1)C2 |  | MIC |  |  |  |  | 50 µM |
| CCN(CC)CCCC(C)Nc1ccnc2cc(N(C)C)ccc12 |  | inhibition | 12.5 µg/mL | BACTEC | H37Rv |  | 47% |
| Oc1ccc(CCNCCNCc2ccccc2)cc1 |  | MIC |  |  |  |  | 50 µM |
| COc1ccc(OC)c(N=Nc2sc(N)nc2-c2ccccc2)c1 |  | inhibition | 6.25 µg/mL | BACTEC | H37Rv |  | 6% |
| CC(=O)NC[C@H]1CN(c2ccc(N3CCN(Cc4ccc([N+](=O)[O-])s4)CC3)c(F)c2)C(=O)O1 |  | MIC90 |  |  | 59 isolates |  | 0.25 µg/mL |
| COc1ccc(C2SC(N)=Nc3c2c(C)nn3C(=O)c2ccccc2O)cc1 |  | inhibition | 6.25 µg/mL | resazurin | H37Rv |  | 26% |
| O=[N+]([O-])c1ccccc1Sc1nnc(N2CCN(c3nc(N4CCN(c5ccccc5)CC4)c4ccccc4n3)CC2)o1 |  | inhibition | 6.25 µg/mL | BACTEC / fluorescence | H37Rv |  | 0% |

Fold resistance has wild type as its base. MIC50, MIC90 and the like: level of inhibition, or share of isolates inhibited. Two numbers with a dash give a range or band. MIC bound comes from a single tested concentration. ECn: concentration that inhibits the pathogen or its effect by n%. Percent inhibition refers to the dose given; in toxicity tests it is the harm to the cells. Rows are shuffled and stem from different studies.